Reference: article PMC8286831, “Identifying SARS-CoV-2 antiviral compounds by screening for small molecule inhibitors of nsp13 helicase” (Biochemical Journal, 2021)

Molecular target: SARS-CoV-2 nsp13 helicase (Severe acute respiratory syndrome coronavirus 2, UniProt P0DTD1)
Experiment: FRET-based nsp13 helicase assay
Type: biochemical
Details: read-out: IC50 No detergent

Q: `Cn1cc(-c2ccc3ncc(Cc4ccc5ncccc5c4)n3n2)cn1` was tested. Which IC50 did it give?
A: Its IC50 is 75 µM.
